# Tested on: Rattus norvegicus
# Assay: Inhibition of lethal factor-induced toxicity in Fischer 344 rat assessed as increase in median survival time at 10 mg/kg, iv relative to control
structure (smiles),measurement,value
Cc1cc(CNCCCC[C@@H](Nc2cc(C)c(F)c(C)c2)C(=O)NO)ccc1F,Activity,100%

# From ChEMBL document CHEMBL1268892, “Antidotes to anthrax lethal factor intoxication. Part 1: Discovery of potent lethal factor inhibitors with in vivo efficacy” (Bioorg Med Chem Lett, 2010)
